The assay has as its system Moloney murine sarcoma virus (MSV). The experiment in a line: MSV infection in newborn NMRI mice, intraperitoneal administration. Type of assay: in vivo. Here is the method:
Two gram newborn NMRI mice were injected intramuscularly in the left hind leg with 50 μl of 250-fold diluted stock preparation of Moloney murine sarcoma virus. Starting 2-4 hours before virus infection, each animal was injected intraperitoneally in groups of 10 with a single dose of test compound with 50, 20 or 10 mg/kg of the resolved compounds of the Formula I or prototype compounds (for abbreviations, see Footnote to Table 1); compounds (R)-PMPA and (R)-PMPDAP were administered also at the dose of S and 2 mg/kg. Another group of mice (20 animals) was administered RPMI-1640 medium as placebo. All compounds were solubilized in RPMI-1640 medium. The mice were observed daily for 20 days and the day of tumor initiation and the day of animal death was recorded for each animal. Statistical analyses were performed by calculating the standard deviation.

Consider 9-(S)-(2-Phosphonomethoxypropyl)adenine, for which the “Mean day of animal death” value runs as follows: (10 mg/kg single dose i.p.) 10.9 ± 0.88 days; (20 mg/kg single dose i.p.) 10.9 ± 0.88 days.

Source of the values: patent US6479673B1, “Antiretroviral enantiomeric nucleotide analogs” (Institute of Organic Chemistry and Biochemistry of the …, priority 1992, dated 2002).
